A mixed list of measured activities; the numbers were collected in NIAID ChemDB.

Common to all: tests in culture; species: HIV-1

Blank or dashed fields: not listed here. ECn is the concentration giving n% inhibition of infection, replication or growth. Lines come from different laboratories, so protocols vary.

SMILES	mutations	setting	cells	method	strain	endpoint	value
Cc1ccc(NC2=NS(=O)(=O)NC(Cc3ccccc3)=C2)cc1C			MT-4	MTT	IIIB	EC50	>177 µM
CCOC(=O)C1c2cccn2N(C)c2ccccc2N1C(=O)CCl			MT-4	MTT	IIIB	EC50	>6.3 µM
NOCc1cccc(Cl)c1Cl			MT-4	cytopathic effect / MTT	IIIB	EC50	8.99 µg/mL
Cc1ccc(NC(=O)CN2CCN(Cc3nc(-c4ccc(F)cc4)no3)CC2)cc1			PBMC	RT activity	93IN101	EC50	11 µM
NOCc1c(Cl)cccc1Cl			MT-4	cytopathic effect / MTT	IIIB	EC50	1.67 µg/mL
Nc1nccc2c1nnn2[C@H]1C[C@H](O)[C@@H](CO)O1			MT-4	cytopathic effect		EC50	>396 µM
CC1(C)[C@@H](O[C@H]2O[C@H](C(=O)O)[C@@H](O)[C@H](O)[C@H]2O[C@@H]2O[C@H](C(=O)O)[C@@H](O)[C@H](O)[C@H]2O)CC[C@]2(C)[C@H]3C(=O)C=C4[C@@H]5C[C@@](C)(C(=O)O)CC[C@]5(C)CC[C@@]4(C)[C@]3(C)CC[C@@H]12			MT-4	cytopathic effect	IIIB	EC50	>60 µM
N#CCC1Nc2ccccc2S(=O)(=O)n2cccc21			MT-4	MTT	IIIB	EC50	122 µM
Cc1ccc(N2C(=O)CS/C2=N\c2nc3ccccc3s2)cc1			MT-4	MTT	IIIB	EC50	>100 µM
Nc1ncnc2c1nnn2[C@H]1C[C@H](O)[C@@H](CO)O1			MT-4	cytopathic effect		EC50	>1.2 µM
CC(C)C1=C2[C@H]3CC[C@@H]4[C@@]5(C)CC[C@H](OC(=O)[C@H]6C[C@@H](C(=O)O)C6(C)C)C(C)(C)[C@@H]5CC[C@@]4(C)[C@]3(C)CC[C@@]2([C@@H](O)CNC(=O)Cc2ccc(Cl)cc2)CC1=O			MT-2	p24 / ELISA	92HT599	EC50	<1 µM
CC(NC(=S)Nc1nc2ccccc2s1)c1ccccc1			MT-4	MTT	IIIB	EC50	1 µM
Cc1cc(S(=O)(=O)Nc2nc(N)n(-c3ccccc3)n2)c(S)cc1Cl			CEM + CEM-SS	cytopathic effect / XTT	RF	EC50	64 µM
CC(CO)n1cnc2c(Cl)ncnc21			MT-4	RT activity	LAV-1	EC50	>100 µM
CC(C)C1=C2[C@H]3CC[C@@H]4[C@@]5(C)CC[C@H](OC(=O)[C@H]6C[C@@H](C(=O)O)C6(C)C)C(C)(C)[C@@H]5CC[C@@]4(C)[C@]3(C)CC[C@@]2(CCNC(=O)c2ccc(N3CCOCC3)cc2)CC1=O			MT-2	p24 / ELISA	92HT599	EC50	<1 µM
Nc1ncc2ncn(CCO)c2n1			MT-2	RT activity	LAV-1	EC50	>100 µM
C[C@H]1CO[C@]23CCC[C@H]2N2C=C(C(=O)NCc4c(F)cc(F)nc4F)C(=O)C(=O)C2CN13			CEM-SS	XTT	IIIB	EC50	0.0838 µM
C=C(C)COCn1c(CC2CCCc3ccccc32)c(CC)c(=O)[nH]c1=O			MT-4	cytopathic effect / MTT	IIIB	EC50	3 µM
O=S1(=O)N=C(Nc2ccc(F)c(F)c2)C=C(Cc2ccc3ccccc3c2)N1			MT-4	MTT	IIIB	EC50	>156 µM
CC1=CC[C@@H]([C@@H](C)[C@H]2CC[C@@]3(C)C4=C(C(=O)C[C@]23C)[C@H]2O[C@]23C=CC(=O)OC(C)(C)[C@@H]3CC4)OC1=O			C8166	cytopathic effect		EC50	1.09 µg/mL
O=C(NCc1ccc(F)nc1F)C1=CN2C[C@H]3O[C@@H]4CC[C@@H](C4)N3C(=O)C2C(=O)C1=O			CEM-SS	XTT	IIIB	EC50	0.0562 µM
Nc1ncnc2c1ncn2[C@H]1C=C[C@@H](CO)[C@@H]1CO			MT-4	XTT	IIIB	EC50	1.8 µg/mL
C[C@H]1CO[C@@H]2CN3C=C(C(=O)NCc4nc5cc(Cl)ccc5o4)C(=O)C(=O)C3C(=O)N12			CEM-SS	XTT	IIIB	EC50	0.0636 µM
CC(C)C1=C2[C@H]3CC[C@@H]4[C@@]5(C)CC[C@H](OC(=O)[C@H]6C[C@@H](C(=O)O)C6(C)C)C(C)(C)[C@@H]5CC[C@@]4(C)[C@]3(C)CC[C@@]2(CC(=O)NCc2cccnc2N2CCOCC2)CC1=O			MT-2	p24 / ELISA	92HT599	EC50	<1 µM
Cc1nnsc1CNC(=O)C1=CN2C[C@H]3OC[C@H](C)N3C(=O)C2C(=O)C1=O			CEM-SS	XTT	IIIB	EC50	0.0604 µM
COc1cc(CS(=O)(=O)c2cccc[n+]2[O-])ccc1OCc1ccccc1			CEM + CEM-SS	syncytia	IIIB	EC50	>4 µg/mL
Cc1ccc(CN=C2C=C(Cc3ccccc3)NS(=O)(=O)N2)cc1			MT-4	MTT	IIIB	EC50	>192 µM
C=C(C)[C@@H]1CC[C@@H]2[C@]3(CC[C@]4(C)[C@@H]([C@H](C)CC/C=C(/C)C(=O)O)CC[C@@]24C)C[C@]13CCC(=O)O			C8166	cytopathic effect		EC50	28.97 µg/mL
Nc1ncnc2c1nnn2[C@H]1CC[C@@H](CO)O1			MT-4	cytopathic effect		EC50	>0.3 µM
CC1=C[C@H](Cn2cnc3c(=O)[nH]c(N)nc32)C[C@@H]1CO			MT-4	MTT	IIIB	EC50	>100 µg/mL
Cc1cn(C2OC(CO[Si](C)(C)C(C)(C)C)C3(OS(=O)(=O)C=C3N)C2O[Si](C)(C)C(C)(C)C)c(=O)n(CCCNC(=O)c2ccc(C(=O)c3ccccc3)cc2)c1=O			CEM	syncytia	E138K	EC50	>50 µM
Nc1c(-c2nccc(=O)[nH]2)ncn1[C@@H]1O[C@H](CO)[C@@H](O)[C@H]1O			MT-2	RT activity	LAV-1	EC50	>1500 µM
CC1=CC=CN(C)C1SCc1cc(C)ccc1C			CEM + CEM-SS	syncytia	IIIB	EC50	>4 µg/mL
O=S1(=O)N=C(Nc2ccc(Cl)c(F)c2)C=C(Cc2ccc3ccccc3c2)N1			MT-4	MTT	IIIB	EC50	>152 µM
CCOC(=O)C1c2cccn2S(=O)(=O)c2ccccc2N1C(=O)CBr			MT-4	MTT	IIIB	EC50	>10.7 µM
CCSCCCCCCCCCCC(=O)OC[C@@H]1C=C[C@H](n2cc(C)c(=O)[nH]c2=O)O1			MT-4	p24		EC90	0.65 µM
C[C@H]1CO[C@@H]2CN3C=C(C(=O)NCc4nncn4C)C(=O)C(=O)C3C(=O)N12			CEM-SS	XTT	IIIB	EC50	0.0399 µM
COc1c(C)c2c(c(O)c1C/C=C(\C)CCC(=O)O)C(=O)OC2			H9	RT activity	LAV-1	EC50	~0.005 µM
CC(C)C1=C2[C@H]3CC[C@@H]4[C@@]5(C)CC[C@H](OC(=O)[C@H]6C[C@@H](C(=O)O)C6(C)C)C(C)(C)[C@@H]5CC[C@@]4(C)[C@]3(C)CC[C@@]2(CC(=O)NCC(F)(F)NC(=O)c2ccc(Cl)cc2)CC1=O			MT-2	p24 / ELISA	92HT599	EC50	<1 µM
Nc1nc2c(ncn2[C@H]2C=C(F)[C@@H](CO)C2)c(=O)[nH]1			PBMC	RT activity	LAI	EC90	2.8 µM
C[C@@H]1CCO[C@H]2CN3C=C(C(=O)NCc4c(F)cncc4F)C(=O)C(=O)C3C(=O)N12			CEM-SS	XTT	IIIB	EC50	0.0759 µM
O=C(NCc1ccc(F)c(Cl)c1)c1cc2cccnc2n(O)c1=O		pseudotyped	HOS	luciferase		EC50	>0.0375 µM
Cc1cc(C)c(NC2=NS(=O)(=O)NC(Cc3ccc4ccccc4c3)=C2)c(C)c1			MT-4	MTT	IIIB	EC50	>96 µM
N#Cc1ccc(N2C(=O)CS/C2=N\c2nc3ccccc3s2)cc1			MT-4	MTT	IIIB	EC50	>100 µM
Cc1cncc(C(=O)NC(C)(C)CNC(=O)C[C@@]23CC[C@]4(C)[C@H](CC[C@@H]5[C@@]6(C)CC[C@H](OC(=O)[C@H]7C[C@@H](C(=O)O)C7(C)C)C(C)(C)[C@@H]6CC[C@]54C)C2=C(C(C)C)C(=O)C3)n1			MT-2	p24 / ELISA	92HT599	EC50	<1 µM
N#Cc1ccc(NC2=NS(=O)(=O)NC(Cc3ccccc3)=C2)cc1			MT-4	MTT	IIIB	EC50	>369 µM
NC(=O)n1c(O)c(C(=O)c2cccs2)c2cc(Cl)ccc21			H9	p24	MN	EC50	<45 µM
CCCCCCCCCCCCCC(=O)OC[C@@H]1C=C[C@H](n2cc(C)c(=O)[nH]c2=O)O1			MT-4	p24		EC50	0.22 µM
C=C1[C@H]2CCC(C)=C[C@@H]2[C@@H](C(C)C)[C@H](O)[C@H]1O		pseudotyped	SupT1	luciferase / luminescence		EC50	37.9 µM
NOCc1ccc(Cl)cc1Cl			MT-4	cytopathic effect / MTT	IIIB	EC50	11.5 µg/mL
Cc1cn(C2OC(CO[Si](C)(C)C(C)(C)C)C3(OS(=O)(=O)C=C3N)C2O[Si](C)(C)C(C)(C)C)c(=O)n(/C=C\CO)c1=O			CEM	syncytia	E138K	EC50	>5 µM
O=c1cc(CCl)nc2c3ncn([C@H]4C[C@H](O)[C@@H](COP(=O)(O)O)O4)c3ncn12			MT-2	RT activity	LAV-1	EC50	>200 µM
N#C/C(=C\c1ccccc1)Sc1ccccc1O			CEM + CEM-SS	syncytia	IIIB	EC50	>4 µg/mL
COc1ccc(S(=O)(=O)N(CC(C)C)C[C@@H](O)[C@H](Cc2ccccc2)NC(=O)O[C@H]2CCOC2)cc1			CEM	p24 / ELISA	LAI	EC50	0.202 µM
Nc1nc2c(ncn2[C@@H]2C=C(F)[C@H](CO)C2)c(=O)[nH]1			PBMC	RT activity	LAI	EC90	>100 µM
CN1CC(=O)N2c3ccccc3S(=O)(=O)n3cccc3C2C1=O			MT-4	MTT	IIIB	EC50	>302 µM
Cc1cn(C2OC(CO[Si](C)(C)C(C)(C)C)C3(OS(=O)(=O)C=C3N)C2O[Si](C)(C)C(C)(C)C)c(=O)n(CC(=O)N(CCCl)CCCl)c1=O			CEM	syncytia	IIIB	EC50	0.04 µM
Cc1cc(C#N)cc(C)c1Oc1nc(Nc2ccc(C#N)cc2)nc(N)c1Br	K103N		MT-4	MTT		EC50	0.003 µM
Nc1nc2c(ncn2COCCO)c(=O)[nH]1				single cycle		EC50	10 µM
COc1ccc(NC2=NS(=O)(=O)NC(Cc3ccc4ccccc4c3)=C2)cc1			MT-4	MTT	IIIB	EC50	>165 µM
C#C[C@@]1(COP(=O)(O)OP(=O)(O)OP(=O)(O)O)C=C[C@H](n2cc(C)c(=O)[nH]c2=O)O1	P119S		TZM-bl	luciferase	NL4-3	EC50	0.85 µM
NOCc1ccccc1Cl			MT-4	cytopathic effect / MTT	IIIB	EC50	13.8 µg/mL
O=c1ccn(C23C=C[C@@H](CO)[C@@H]2C3)c(=O)[nH]1			MT-4	MTT	IIIB	EC50	>100 µg/mL
O=S1(=O)N=C(Nc2cccc(Cl)c2)C=C(Cc2cccc3ccccc23)N1			MT-4	MTT	IIIB	EC50	>161 µM
O=S(=O)(Cc1ccc(CS(O)(O)c2ccc[n+]([O-])c2)cc1)c1cccc[n+]1[O-]			CEM + CEM-SS	syncytia	IIIB	EC50	≥20 µg/mL
C[C@H]1CO[C@@H]2CN3C=C(C(=O)NCc4cnc5cnccn45)C(=O)C(=O)C3C(=O)N12			CEM-SS	XTT	IIIB	EC50	0.0207 µM
COc1cc2c(c(OC)c1OC)-c1c(cc(OC(C)=O)c(OC)c1OC)[C@H](OC)[C@@H](C)[C@@H](C)C2			C8166	MTT		EC50	2.26 µg/mL
NC(=O)CC1Nc2ccccc2S(=O)(=O)n2cccc21			MT-4	MTT	IIIB	EC50	>206 µM
CC(C)C1=C2[C@H]3CC[C@@H]4[C@@]5(C)CC[C@H](OC(=O)[C@H]6C[C@@H](C(=O)O)C6(C)C)C(C)(C)[C@@H]5CC[C@@]4(C)[C@]3(C)CC[C@@]2(CCNCc2ccc(Cl)cc2O[C@H]2CCOC2)CC1=O			MT-2	p24 / ELISA	92HT599	EC50	<1 µM
O=C(O)CC1Nc2ccccc2S(=O)(=O)n2cccc21			MT-4	MTT	IIIB	EC50	>342 µM
Cc1nn(C)c(C)c1CNC(=O)C1=CN2C[C@H]3OC[C@H](C)N3C(=O)C2C(=O)C1=O			CEM-SS	XTT	IIIB	EC50	0.0401 µM
Nc1ncc2ncn(CCCO)c2n1			MT-2	RT activity	LAV-1	EC50	>100 µM
OC[C@H]1O[C@@H](n2nnc3c(Cl)nccc32)[C@H](O)[C@@H]1O			MT-4	cytopathic effect		EC50	>359 µM
COc1ncnc2c1ncn2C(C)CO			MT-4	RT activity	LAV-1	EC50	>100 µM
Cc1cc(C(C)(C)C)ccc1N1C(=O)CS/C1=N\c1nc2ccccc2s1			MT-4	MTT	IIIB	EC50	>86 µM
Cc1cn([C@H]2C=C[C@@H](COC(=O)CCCCCCCCCCCBr)O2)c(=O)[nH]c1=O			MT-4	p24		EC50	0.7 µM

The last 4 rows once more:

{"SMILES": "OC[C@H]1O[C@@H](n2nnc3c(Cl)nccc32)[C@H](O)[C@@H]1O", "cells": "MT-4", "method": "cytopathic effect", "endpoint": "EC50", "value": ">359 µM"}
{"SMILES": "COc1ncnc2c1ncn2C(C)CO", "cells": "MT-4", "method": "RT activity", "strain": "LAV-1", "endpoint": "EC50", "value": ">100 µM"}
{"SMILES": "Cc1cc(C(C)(C)C)ccc1N1C(=O)CS/C1=N\\c1nc2ccccc2s1", "cells": "MT-4", "method": "MTT", "strain": "IIIB", "endpoint": "EC50", "value": ">86 µM"}
{"SMILES": "Cc1cn([C@H]2C=C[C@@H](COC(=O)CCCCCCCCCCCBr)O2)c(=O)[nH]c1=O", "cells": "MT-4", "method": "p24", "endpoint": "EC50", "value": "0.7 µM"}